Experimental findings from patent publication US9072759B2 (priority 2008, dated 2015) are described below.

Common to all, as to assay type: cell-based
The test system of experiment [1] is S. pneumoniae 303 Ery-R (ermB). The conditions noted are these: cladinose table b63.
Experiment [2] relates to H. influenzae 49247 Ery-S. Nature of the experiment: microbe, parasite or virus in culture. The conditions noted are these: for MIC: Haemophilus influenzae, 49247ERYS, read-out: MIC, H. influenzae 49247 Ery-S.
In experiment [3] the test system is S. pneumoniae 163 Ery-R (MefA). As to conditions: cladinose table b63.
Experiment [4] deals with S. aureus 25923 Ery-S. Nature of the experiment: microbe, parasite or virus in culture. As to conditions: Staphylococcus aureus, 25923ERYS, read-out: MIC, S. aureus 25923 Ery-S.

The structures appear in SMILES notation. Values after ≈ are worked out from the molar mass of the structure shown.

For the compound `CC[C@H]1OC(=O)[C@H](C)[C@@H](OC2CC(C)(OC)C(O)C(C)O2)[C@H](C)[C@@H](OC2OC(C)CC(N(C)C)C2O)[C@@](C)(OC)C[C@@H](C)C(=O)[C@H](C)[C@H]2N(CCCCn3cc(-c4ccccn4)nn3)C(=O)O[C@]12C` (stereo partly shown) [Entry 20a], the “MIC, S. pneumoniae 303 Ery-R (ermB)” value in experiment [1] worked out at 2 µg/mL (≈ 2.06 µM).

Take `CC[C@H]1OC(=O)[C@@](C)(F)C(=O)[C@H](C)[C@@H](OC2OC(C)CC(N(C)C)C2O)[C@@](C)(OC)C[C@@H](C)C(=O)[C@H](C)[C@H]2N(CCCCn3cc(-c4cccc(N)c4)nn3)C(=O)O[C@]12C` (stereo partly shown) [CEM-101, 11-N-4-(3-aminophenyl)-[1,2,3]triazol-1-yl]-butyl}-5-desosaminyl-3-oxo-2-fluoro-erythronolide A,-11,12-cyclic carbamate]: the MIC in experiment [2] was 2 µg/mL (≈ 2.37 µM).

In the case of `CC[C@H]1OC(=O)[C@@](C)(F)C(=O)[C@H](C)[C@@H](OC2OC(C)CC(N(C)C)C2O)[C@@](C)(OC)C[C@@H](C)C(=O)[C@H](C)[C@H]2N(CCCCn3cc(-c4ccccn4)nn3)C(=O)O[C@]12C` (stereo partly shown) [Entry 23a], the “MIC, H. influenzae 49247 Ery-S” value in experiment [2] stood at 2 µg/mL (≈ 2.41 µM).

For the compound `CC[C@H]1OC(=O)[C@H](C)[C@@H](OC2CC(C)(OC)C(O)C(C)O2)[C@H](C)[C@@H](OC2OC(C)CC(N(C)C)C2O)[C@@](C)(OC)C[C@@H](C)C(=O)[C@H](C)[C@H]2N(CCCCn3cc(-c4cccnc4)nn3)C(=O)O[C@]12C` (stereo partly shown) [Entry 20b], the “MIC, S. pneumoniae 163 Ery-R (MefA)” value in experiment [3] was “≦0.06 μg/mL”. Also, the “MIC, S. pneumoniae 303 Ery-R (ermB)” value in experiment [1] stood at 1 µg/mL (≈ 1.03 µM).

Take `CC[C@H]1OC(=O)[C@H](C)[C@@H](OC2CC(C)(OC)C(O)C(C)O2)[C@H](C)[C@@H](OC2OC(C)CC(N(C)C)C2O)[C@@](C)(OC)C[C@@H](C)C(=O)[C@H](C)[C@H]2N(CCCCn3cc(Cn4nnc5ccccc54)nn3)C(=O)O[C@]12C` (stereo partly shown) [Entry 20e]: in experiment [3], the “MIC, S. pneumoniae 163 Ery-R (MefA)” value was found to be 0.5 µg/mL (≈ 0.487 µM). The “MIC, S. pneumoniae 303 Ery-R (ermB)” value in experiment [1] stood at 2 µg/mL (≈ 1.95 µM).

In the case of `CC[C@H]1OC(=O)[C@H](C)[C@@H](OC2CC(C)(OC)C(O)C(C)O2)[C@H](C)[C@@H](OC2OC(C)CC(N(C)C)C2O)[C@@](C)(OC)C[C@@H](C)C(=O)[C@H](C)[C@H]2N(CCCCn3cc(-c4cccc(N)c4)nn3)C(=O)O[C@]12C` (stereo partly shown) [Entry 20c], the “MIC, S. pneumoniae 163 Ery-R (MefA)” value in experiment [3] came to 0.5 µg/mL (≈ 0.506 µM). Besides, the “MIC, S. pneumoniae 303 Ery-R (ermB)” value in experiment [1] amounted to 2 µg/mL (≈ 2.03 µM).

For `CC[C@H]1OC(=O)[C@H](C)[C@@H](OC2CC(C)(OC)C(O)C(C)O2)[C@H](C)[C@@H](OC2OC(C)CC(N(C)C)C2O)[C@@](C)(OC)C[C@@H](C)C(=O)[C@H](C)[C@H]2N(CCCCn3cc(COc4c(Cl)cccc4Cl)nn3)C(=O)O[C@]12C` (stereo partly shown) [Entry 20d], in experiment [3], the “MIC, S. pneumoniae 163 Ery-R (MefA)” value came to 0.5 µg/mL (≈ 0.467 µM). Moreover, the “MIC, S. pneumoniae 303 Ery-R (ermB)” value in experiment [1] was determined as 2 µg/mL (≈ 1.87 µM).

Consider `CC[C@H]1OC(=O)[C@H](C)C(=O)[C@H](C)[C@@H](O[C@@H]2O[C@H](C)C[C@H](N(C)C)[C@H]2O)[C@](C)(OC)C[C@@H](C)C(=O)[C@H](C)[C@H]2N(CCCCn3cnc(-c4cccnc4)c3)C(=O)O[C@]12C` [TEL, Telithromycin], for which the MIC in experiment [2] was 4 µg/mL (≈ 4.93 µM); in experiment [4] it was no more than 0.25 µg/mL.
